Values from PubChem BioAssay AID624099 (ICCB-Longwood, 2012)
The whole screen tested about 21,000 reagents; shown is a part drawn at random. 497 of them (2.4%) count as active. 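Higher z means weaker E2 silencing; only reporter increases were scored, and knock-downs that hurt cell survival may mask genuine repressor factors.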 Reagent sequences are not shown.

- Test: 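Knock-downs relieving repression by E2 of an HPV18 LCR luciferase reporter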 (primary screen)
- System: human C33A cervical carcinoma cells (HPV-negative) stably expressing BPV1 E2 and an HPV18 LCR luciferase reporter
- Reagents: siRNA pool against human genes, 40 nM
- Timing: 72 h
- Measured: 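Per-well luciferase luminescence, z-scored on each plate against the plate mean and SD with control wells left out, then averaged across three replicate plates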
- Scale: mean z-score and z-score: higher = stronger reporter signal, weaker E2 silencing
- Hit rule: 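Mean z ≥ 2 together with z ≥ 2 in two or more of the three replicates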

PPEF2 — mean z-score: -0.05; z-score, replicate A: -0.31; z-score, replicate B: 0; z-score, replicate C: 0.18; activity call: inactive
CFAP251 — mean z-score: 0.94; z-score, replicate A: 0.97; z-score, replicate B: 1.03; z-score, replicate C: 0.82; activity call: inactive
SYT6 — mean z-score: -0.83; z-score, replicate A: -0.73; z-score, replicate B: -0.63; z-score, replicate C: -1.13; activity call: inactive
C1QTNF9 — mean z-score: 0.18; z-score, replicate A: 0.3; z-score, replicate B: -0.13; z-score, replicate C: 0.36; activity call: inactive
KIR3DL3 — mean z-score: -0.41; z-score, replicate A: -0.35; z-score, replicate B: -0.45; z-score, replicate C: -0.43; activity call: inactive
DEPDC1 — mean z-score: 0.68; z-score, replicate A: 0.52; z-score, replicate B: 1.04; z-score, replicate C: 0.47; activity call: inactive
SYT16 — mean z-score: 0.75; z-score, replicate A: 0.8; z-score, replicate B: 0.69; z-score, replicate C: 0.76; activity call: inactive
OR5K2 — mean z-score: -0.03; z-score, replicate A: 0.14; z-score, replicate B: -0.09; z-score, replicate C: -0.13; activity call: inactive
SULT1C2 — mean z-score: -0.08; z-score, replicate A: 0; z-score, replicate B: -0.14; z-score, replicate C: -0.1; activity call: inactive
SLC35D2 — mean z-score: 0.5; z-score, replicate A: 0.29; z-score, replicate B: 0.38; z-score, replicate C: 0.82; activity call: inactive
SOX21 — mean z-score: -1.25; z-score, replicate A: -1.1; z-score, replicate B: -1.38; z-score, replicate C: -1.28; activity call: inactive
PKP4 — mean z-score: 2.15; z-score, replicate A: 2.28; z-score, replicate B: 2.25; z-score, replicate C: 1.92; activity call: active

Laid out differently: entries from further up
gene	mean z-score	z-score, replicate A	z-score, replicate B	z-score, replicate C	activity call
DEPDC1	0.68	0.52	1.04	0.47	inactive
SYT16	0.75	0.8	0.69	0.76	inactive
